The data set addresses HIV-1 integrase IN1-55 zinc finger domain (HIV-1) (UniProt P12497). Nature of the data set: binding assay. The settings on record: UV crosslinking, binds only with Zn plus Mn or Mg, no binding with Zn alone, purified recombinant protein, label: 5'-32P.

The exact form of at least one protein or probe is not confirmed.

In the case of “GTGTGGAAAATCTCTAGCAGT (double strand) [HIV-1 U5 LTR 21-mer duplex (AE118/AE117)]”, the binding result is recorded as “binds”.
